{"sequences": {"note": "Protein sequences, listed by entry. Tags and fused reporters are not part of them. Residues count along the entry.", "UniProt P04925, 23-230": "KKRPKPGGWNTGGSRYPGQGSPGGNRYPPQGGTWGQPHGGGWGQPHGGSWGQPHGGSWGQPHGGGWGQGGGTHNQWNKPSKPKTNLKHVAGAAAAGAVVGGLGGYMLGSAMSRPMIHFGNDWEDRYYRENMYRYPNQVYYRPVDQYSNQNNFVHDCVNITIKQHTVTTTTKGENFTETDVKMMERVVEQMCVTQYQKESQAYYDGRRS"}, "source": "paper PMC6922452", "about": "(PLoS Pathogens, 2019)", "binders": {"B1": {"name": "anti-PrP monoclonal antibody POM1 (antibody, V domains shown)", "VH": "QVQLQQSGTELVMPGASVKMSCKASGYTFTDYWMHWVKQRPGQGLEWIGSIDPSDSYTSHNEKFKGKATLTVDESSSTAYMQLSSLTSEDSAVYFCSRSGYGYYAMEYWGQGTSVTVSS", "VL": "DIVLTQSPAILSVSPGERVSFSCRASQNIGTSIHWYQQRTNESPRLIIKYASESISGIPSRFSGSGSGTDFTLSINSVESEDIADYYCQQSNTWPYTFGGGTKLELK"}}, "target": "recombinant mouse prion protein MoPrP(23–230) (mouse, UniProt P04925)", "assay": "ELISA", "conditions": "both partners purified"}
{"binder": "B1", "values": [{"measurement": "binding result", "value": "binds"}]}
